# Values of other authors as cited in patent US9358281B2, “Methods, agents and peptides for inducing an innate immune response in HIV vaccination” (New York University, priority 2009, dated 2016).
# Biological target: Cyclophilin A (Homo sapiens)
# Conditions: Reimer et al., 1997; cited from earlier work
substance,measurement,value
second peptide: SEQ ID NO: 16 peptide with Gly9 replaced with Ala and Met16 changed to norleucine (Nle) (DRVHPVHAAPIAPGQMREPRGSDIA; Met16 to norleucine; Human Immunodeficiency Virus),activity (interaction with Cyclophilin A),also has activity
